Anti-infective test results gathered from many reports (values: NIAID ChemDB through PubChem).

All rows: growth or infection tests; species: Herpes simplex virus 1; endpoint: MIC

Conditions beyond the fields shown may differ between rows.

smiles | strain or isolate | result
Cn1[se]c2ncccc2c1=O | - | 0.6 µg/mL
O=c1[nH]c(=O)n([C@H]2C[C@H](O)[C@@H](CO)O2)cc1/C=C/Br | KOS | 0.26 µM
C(=Nc1ccccc1[Se][Se]c1ccccc1N=Cc1ccccc1)c1ccccc1 | - | >1000 µg/mL
Nc1ncnc2c1ncn2CCOCP(=O)(O)O | - | 7 µg/mL
Nc1nc2c(ncn2COC(CO)CO)c(=O)[nH]1 | KOS | 0.38 µM
O=c1c2cccnc2[se]n1N(c1ccccc1)c1ccccn1 | - | 2 µg/mL
Oc1ccccc1[Se][Se]c1ccccc1O | - | >1000 µg/mL
CC(C)(C)n1[se]c2ncccc2c1=O | - | 1 µg/mL
NCC(=O)N[C@@H](Cc1ccccc1)C(=O)OCCOCn1cnc2c(=O)[nH]c(N)nc21 | KOS | 0.96 µM
CCCCNS(=O)(=O)c1ccc(NC(=O)CCC[Se][Se]CCCC(=O)Nc2ccc(S(=O)(=O)NCCCC)cc2)cc1 | - | >1000 µg/mL
Nc1nc2c(ncn2COCCOC(=O)CNC(=O)[C@@H](N)Cc2ccccc2)c(=O)[nH]1 | KOS | 0.8 µM
O=c1c2ccccc2[se]n1-c1ccccn1 | - | 2 µg/mL
O=c1c2ccccc2[se]n1CC(O)C(O)C(O)C(O)CO | - | 27.6 µM
NC(=O)c1ncn([C@@H]2O[C@H](CO)[C@@H](O)[C@H]2O)n1 | KOS | >1000 µM
O=C(Nc1ccccc1[Se][Se]c1ccccc1NC(=O)c1ccccc1)c1ccccc1 | - | >1000 µg/mL
Nc1nc(N)c2ncn(CCOCP(=O)(O)O)c2n1 | - | 2 µg/mL
NS(=O)(=O)c1ccc(NC(=O)c2ccccc2[Se][Se]c2ccccc2C(=O)Nc2ccc(S(N)(=O)=O)cc2)cc1 | - | >1000 µg/mL
O=c1[nH][se]c2ccccc12 | - | 1 µg/mL

A second listing of 2 rows from above:

| smiles | strain or isolate | result |
|---|---|---|
| NS(=O)(=O)c1ccc(NC(=O)c2ccccc2[Se][Se]c2ccccc2C(=O)Nc2ccc(S(N)(=O)=O)cc2)cc1 | - | >1000 µg/mL |
| Nc1nc2c(ncn2COCCOC(=O)CNC(=O)[C@@H](N)Cc2ccccc2)c(=O)[nH]1 | KOS | 0.8 µM |

An empty or dashed field is not shown.